In the supplement of paper PMC9931576:
Human monoclonal antibodies against the spike receptor-binding domain (heavy:light variable regions). IC50 against pseudoviruses bearing the spike of naturally observed variants; lower = stronger; >10 µg/ml means not reached at the top dose. No active / inactive call. The stated detection limit is 0.0005 µg/ml; values near or below 0.001 µg/ml lie at the floor of the assay.

Legend:
Assay in all cases: pseudovirus neutralization IC50; higher = weaker neutralization
[1] = biological target: SARS-CoV-2 Omicron BA.1 spike pseudovirus
Procedure: (§1)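 Single-round VSV luciferase pseudovirus mixed with antibody dilutions for 1 h and put on Huh-7 cells for about a day; IC50 from the dose curve.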

[2] = biological target: SARS-CoV-2 Omicron BA.2 spike pseudovirus
Procedure: as §1

[3] = biological target: SARS-CoV-2 Omicron BA.2.75 spike pseudovirus
Procedure: as §1

[4] = biological target: SARS-CoV-2 Omicron BA.5 spike pseudovirus
Procedure: as §1

[5] = biological target: SARS-CoV-2 Omicron BQ.1.1 spike pseudovirus
Procedure: as §1

[6] = biological target: SARS-CoV-2 Omicron XBB spike pseudovirus
Procedure: as §1

[7] = biological target: SARS-CoV-2 early D614G spike pseudovirus
Procedure: as §1

Row | Binder | pseudovirus neutralization IC50 [1] [µg/mL] | pseudovirus neutralization IC50 [2] [µg/mL] | pseudovirus neutralization IC50 [3] [µg/mL] | pseudovirus neutralization IC50 [4] [µg/mL] | pseudovirus neutralization IC50 [5] [µg/mL] | pseudovirus neutralization IC50 [6] [µg/mL] | pseudovirus neutralization IC50 [7] [µg/mL]
1 | BD56-937 (protein) chain 1: EVQLLESGGGLVQPGKSLRLSCAASGFTFNNYAMNWVRQAPGKGLQWVSSISASGGSTYYADSVKGRFTISRDNSKKTMSLQMNSLRAEDTAVYYCAKERSYYYDSSRLPDDAFDIWGQGTMVTVSS chain 2: DIQLTQSPSFLSASVGDRVTITCRASQDISSYLAWYQQKPGKAPKLLIFSAFTLQSGVPSRFSGSGSGTEFTLRISSLQPEDFATYYCQQLNSYPLTFGQGTKVEIK | 0.0159 | 0.00934 | 0.0134 | 0.00802 | > 10 | > 10 | 0.00785
2 | BD56-943 (protein) chain 1: QVQLVESGGGLVKPGGSLRLSCEASGFTFSDYYMSWIRQTPGKGLEWVSYISSGSSFTESADSVKGRFTISRDNAKKSLYLRMINLRAEDTAVYYCARVGPKTYSSTWYDDPSFAYYYMDVWGKGTTVTVSS chain 2: EIVLTQSPGTLSLSPGERATLSCRASQSVNSNYLAWYQQKPGQAPRLLIYGTFSRATGIPDRFSGSGSGTDFTLTITRLEPEDFAVYYCQQCGNSPWTFGRGTKVEIK | 0.0693 | 0.0575 | 0.0541 | 0.0406 | 1.6 | 0.844 | 0.011
3 | BD56-972 (protein) chain 1: QVQLVQSGAEMKKPGASVKLSCKASGYTFTNNYIHWVRQAPGQGLEWMGIINPSGGSTSYAQKFQGRVTLSRDTSTPTVYMELSSLKSEDTAVYYCARELSITSVEWEPADYYYGMDAWGQGSKVTVSS chain 2: SFDLNQPSSVSVSPGQTASITCSGDELGDKSVSWYRQKSGQSPSLFIYQDTKRLSGIPERFSGSRSGKTATLTISGAQPMDEAAYYCQAWDSRTARVVFGGGTKLTVL | 0.538 | 1.07 | 1.03 | 1.13 | 3.4 | 4.28 | 2.64
4 | BD56-921 (protein) chain 1: QVTLKESGPVLVKPTETLTLTCTVSGFSLSSPRVGVSWIRQPPGKALEWLAKIFSNDEKSYSTSLKTRLTISRDTSKSQVVLTMTNMDPVDTGTYYCARICHASGNFYSDENYFDPWGQGALVTVSP chain 2: SYELTQPPSVSVSPGQTARITCSGDAFPNQFAYWYQQKAGQAPVVVIYKDSERPSGIPERFSGSSSGPTVTLTISGVQAEDEADYYCQSSDSSGVVFGGGTKLTVL | > 10 | > 10 | > 10 | > 10 | > 10 | > 10 | > 10
5 | BD56-967 (protein) chain 1: QVQLVESGGGVVQPGRSLRLSCTVSGFTFRSYGMHWVRQAPGKGLEWVAVISYDGSDKFYPDSVKGRFTISRDNSKNTLYLQMNSLRAEDTAVYYCAKTVAPYCSGGNCLSGYFDYWGQGILVTVSS chain 2: DIQMTQSPSSLSASVGDRVTITCQASQDISNFLNWYQQKPGKAPKLLMYDISNLETGVPSRFSGSGSGTDFTFTISSLQPEDIATYYCQQYDSLPLTFGGGTKVEIK | > 10 | > 10 | > 10 | > 10 | > 10 | > 10 | > 10
6 | BD56-962 (protein) chain 1: EVQLVQSGTEVKKPGESLKISCKGSGFSFISYWIGWVRQMPGKGLEWMGIIYPGDSDTRYAPSVQGQVTISADKSISTAYLQWSSLKASDTAMYYCARREGTYSSGWEVWGQGTLVTVSS chain 2: QSVLTQPPSASGTPGQRVTISCSGSSSNIGSNGVNWYQQLPGTAPTLLIYNNNQRPSGVPDRFSGSKSGTSASLAISGLQSEDEADYYCAAWDDTLNGVLFGGGTKLTVL | 0.328 | 0.817 | 1.67 | 0.932 | 1.34 | 1.34 | 0.232
7 | BD56-920 (protein) chain 1: QEQLVQSGAEVEMPGASVKVSCKASGYTFTRYEINWVRQATGQGLEWLGWMNPNSGNTGYAQKFQGRVTMTRNTSISTAYMELRSLTSEDTAVYYCARGPHEAARPHYFYYAMDVWGQGTTVTVSS chain 2: QSVLTQPPSVSAAPGQKVTISCSGTSPNIGNNYFSWYHQLPGTAPQLLIYDDNKRPSGIPDRFSGSKSGTSATLAITGLQTGDEADYYCGTWDSSLSAWVFGGGTKLTVL | 0.00546 | 0.00299 | 0.00679 | 0.169 |  |  | 0.00748
8 | BD56-955 (protein) chain 1: EVQLVESGGGVIQPGGSLRLSCAVSGFTFDDYAMHWVRQAPGKGLEWVSLISGDGGNTYYADSVKGRFTISRDNSKNSLYLQMDSLKTEDTALYYCASLSGHGFLYFYSYGMDVWGQGTTVTVSS chain 2: DVVMTQSPLSLSVTPGQPASISCKSSRSLLNADRKTYLFWYLQKPGQSPQLLIYEVSSRFSGVPDRFSGSGSGTDFTLKISRVEAEDVGVYYCMQGIHLPYTFGQGTKLEIK | 0.161 | 0.24 | 0.218 | > 10 | > 10 | 2.75 | 0.362
9 | BD56-959 (protein) chain 1: EVQLVESGGGVVQPGGSLRLSCAVSGFTFDDYAMHWVRQAPGKGLEWVSLISGDGGNTYYADSVKGRFTISRDNSKNSLYLQMDSLKTEDTALYYCATLSGHGFLYYYYYGMDVWGQGTTVTVSS chain 2: DVVMTQSPLSLSVTPGQPASISCRSSRSLLNADRKTYLFWYLQKPGQSPQLLIYEVSSRFSGVPDRFSGSGSGTDFTLKISRVEAEDVGVYYCMQGIHLPYTFGQGTKLEIK | 0.249 | 0.302 | 0.235 | > 10 | > 10 | 1.92 | 0.38
10 | BD56-931 (protein) chain 1: QVQLVQSGAEVKKPGASVKVSCKSSGYTFTSYYLHWVRQAPGQGLEWMGIINPSGGGTRYAQKFQGRVTMTRDTSTSTVYMELSSLRSEDTAVYYCAREGCTGTSCYGDWGQGTLVTVSS chain 2: SYVLTQPPSVSVAPGQTARITCGGNNIGSKSVHWYQQKPGQAPVLVVYDDSDRPSGIPERFSGSNSGNTATLTISRVEAGDEADYYCQLFDGSSDHHYVFGTGTKVTVL | > 10 | > 10 | > 10 | > 10 | > 10 | > 10 | > 10
11 | BD56-946 (protein) chain 1: QVQLQESGPGLVKPSQTLSLTCTVSGGSISSGDYYWSWIRQSPGKGLEWIGYICYNGGTYYNPSLKSRVTMSLDTSKNQFSLKLTSMTAADTAVYYCARNPLRGYTCGYYDDAFDMWGQGTKITVSS chain 2: EIVLTQSPGTLSLSPGERATLSCRASHIVSTSNLAWYQHKPGQAPRLLVYGASSRATGIPDRFSGSGSGTDFTLTISRLEPEDFAVYYCQQYGGSPYTFGQGTKLEIK | 0.613 | 0.418 | 0.266 | 2.73 | 3.63 | 2.13 | 0.868
12 | BD56-930 (protein) chain 1: QVQLVQSGAEVKKPGASVKVSCKASGYTFTSYDISWVRQAPGQGLEWMGWISANNGNTNYAQKLQGRVTMTTDTSTSTSYMELRSLRSDDTAVYYCARDGQTAGYSGTSLPFDHWGQGTLVTVSS chain 2: SYVLTQPPSVSVAPGQTARITCGENNIGSKSVHWYQQRPGQAPVLVVYDDSDRPSGIPERFSGSNSGNTATLTISRVGAGDEADYYCQVWGSSGDHWVFGGGTKLTVL | > 10 | > 10 | > 10 | > 10 | > 10 | > 10 | > 10
13 | BD56-953 (protein) chain 1: EVQLVESGGGLVQPGGSLRLSCAASGITVSSNYMRWVRQAPGKGLEWVSLIYSGGSTFYADSVKGRFTVSRDSSKNTLYLQMNSLRYEDTAVYYCARDLDVVGAMDVWGQGTTVTVSS chain 2: EIVLTQSPGTLSLSPGERATLSCRASQSFSTKFLAWYQQIPGQSPRLLIYGASSRATGVPDRFSGSGSGTDFTLTISRLEAEDFAVYYCQQYGSSPLTFGGGTRVEIK | 0.176 | 0.275 | 1.32 | 1.11 | > 10 | > 10 | 0.0114
